Source: US6455587B1 (priority 2000, dated 2002)

Molecular target: T1, recombinant HIV-1 protease (Human immunodeficiency virus type 1 group M subtype B, UniProt P04585)
T1 construct: recombinant HIV-1 protease (final concentration 2.18 nM) purchased from Bachem Bioscience; purchased Bachem Bioscience
Assay: Enzymatic fluorometric (FRET) assay for determining the inhibition constant (Ki) against HIV protease
Assay type: biochemical
Settings: pH 4.7
Source text: An Enzymatic assay for determining the inhibition constant (Ki) of synthetic compounds targeting the HIV protease may be carried out as follows: This is a fluorometric assay based on the cleavage by protease of a substrate carrying a donor group (EDANS) and an acceptor group (DABCYL) on each side of the cleavage site, interacting together through fluorescence resonance energy transfer (FRET). Cleavage of the substrate by protease stops energy exchange between the two groups, resulting in a time-dependent increase in fluorescence intensity that is linearly related to the extent of substrate hydrolysis.
The enzymatic assay is done at 31° C. in white 96-well fluorescence microplates, in a total volume of 200 μL per well. The apparatus used for analysis is a FL600 fluorescence microplate reader (Biotek Instruments). […] Excitation of the fluorophore is done at 340 nm and emission at 485 nm is recorded continuously during the reaction, allowing determination of the enzyme's initial velocity (v0). At the end of the 4 min incubation, the potential inhibitor at a defined concentration in a volume of 4 μL is added to the reaction, and fluorescence readings are taken for another 4 min, allowing determination of enzyme velocity (vi) in the presence of the inhibitory compound. Several concentrations of the putative inhibitors are tested in the assay. […]

Nα-Cyclopropylmethyl-Nα-(4-methylbenzenesulfonyl)-Nε-(9-fluorenylmethoxycarbonyl)-L-lysine [Compound 43]
Ki: 9.3 µM
